In US6420586B1 (priority 2000, dated 2002):

Tests used:
[1] = tested on: Herpes Simplex Virus Protease; test: Inhibition of Herpes Simplex Virus Protease; format: biochemical; settings: compound concentration 200 μmolar
HIV protease = HIV protease (Human immunodeficiency virus type 1 group M subtype B, UniProt P04585); test: Inhibition of HIV protease; format: biochemical; settings: compound concentration 99 μmolar

## O=P1(Cl)N(Cc2ccccc2)CC=CCN1Cc1ccccc1
[1]
  inhibition of the protease: 44.7%
HIV protease
  inhibition of the protease: 36%
